Anti-infective test results gathered from many reports (values: NIAID ChemDB through PubChem).

All rows: host cell toxicity; cells: PBMC; endpoint: CC50

CCn is the concentration with n% toxicity to the cells. Rows are shuffled and stem from different studies. Blank or dashed fields: not listed here.

SMILES | method | value
Cc1nnc2ccc(N3CCc4ccccc4C3)nn12 |  | 50.8 µM
Nc1ncnc2c1ncn2CC(F)(F)C(F)(F)CO |  | >100 µM
COc1ccc(/C=N/NC(=O)Cn2nc(-c3ccccc3)c3c2-c2ccccc2S(=O)(=O)N3C)c(OC)c1OC |  | >100 µM
CN1CCN(CCSCc2ccc(-c3cccc(-c4ccc(CSCCN5CCN(C)CC5)cc4)n3)cc2)CC1 |  | 10 µM
CN(C)CCNc1nc(-c2ccccc2)nc2ccccc12 |  | 70 µM
COc1ccc(F)cc1-c1cccc(NC(=O)NCCc2ccc3c(n2)NCCC3)n1 |  | 6.1 µM
CN(C)Cc1ccc(-c2cccc(-c3ccc(CN(C)C)cc3)n2)cc1 |  | 100 µM
c1csc(-c2cc(-c3cccs3)nc(N3CCOCC3)n2)c1 |  | >100 µM
N#C[C@@H]1[C@H](O)[C@@H](n2ccc(=O)[nH]c2=O)O[C@H]1CO |  | >100 µM
Nc1nccc2c1ncn2[C@@H]1C[C@H](CO)[C@@H](O)[C@H]1O |  | 9.98 µM
COc1ccc(/C=N/NC(=O)CN2c3c(-c4ccccc4)n[nH]c3-c3ccccc3S2(=O)=O)cc1OC |  | 75.8 µM
N#CC1=C[C@@H](n2cnc3c(=O)[nH]cnc32)O[C@H]1CO |  | >100 µM
CN(C)CCNCc1ccc(-c2cccc(-c3ccc(CNCCN(C)C)cc3)n2)cc1 |  | 10 µM
O=C(NCC1CCc2ccccc2N1)Nc1cccc(Cl)c1 |  | 50 µM
CC(C)(C)C(=O)OCOP(=O)(CC[C@H]1O[C@@H](n2ccc(=O)[nH]c2=O)[C@](C)(F)[C@@H]1O)OCOC(=O)C(C)(C)C |  | >100 µM
O=c1[nH]c(=O)n([C@@H]2O[C@@H](CO)[C@H](O)C2(F)F)cc1I |  | >100 µM
CCCCOc1nc(N)c2c(n1)N(Cc1cccc(CN3CCCC3)c1)CC(=O)N2 | luminescence | >10 µM
Nc1ccn([C@H]2O[C@@H](CO)C=C2F)c(=O)n1 |  | >100 µM
O=C(CN1c2c(-c3ccccc3)n[nH]c2-c2ccccc2S1(=O)=O)N/N=C/c1cccc(Br)c1 |  | 11.7 µM
Nc1nccc2c1ncn2[C@@H]1O[C@H](CO)[C@@H](O)[C@H]1O |  | 10 µM
CN(C)CCNc1cc(-c2ccco2)nc2ccccc12 |  | 1.2 µM
S=C(NCCCc1ccc2c(n1)NCCC2)Nc1ccc(Cl)c(Cl)c1 |  | 50 µM
N#C[C@@H]1[C@H](O)[C@@H](n2ccc(N)nc2=O)O[C@H]1CO |  | >100 µM
Nc1ccn([C@@H]2CS[C@H](CO)O2)c(=O)n1 | luminescence | >1 µM
CC(=O)Nc1ccc(/C=N/NC(=O)Cn2nc(-c3ccccc3)c3c2-c2ccccc2S(=O)(=O)N3C)cc1 |  | >100 µM
CN1CCN(Cc2ccc(-c3cccc(-c4ccc(CN5CCN(C)CC5)cc4)n3)cc2)CC1 |  | 100 µM
Nc1ncnc2c1ncn2CC(F)(F)C(F)(F)C(F)(F)CO |  | >100 µM
COc1ccc2nc(Cl)c(/C=C/C(=O)c3ccc4c(c3)OCCO4)cc2c1 | MTS | 14.2 µM
FC(F)(F)c1nnc2c3ccccc3c(N3CCc4ccccc4C3)nn12 |  | >100 µM
O=C(NCCc1ccc2c(n1)NCCC2)NCC1(c2ccccc2)CC1 |  | 16 µM
CN1CCN(c2c3c(nc4ccccc24)-c2ccsc2CC3)CC1 |  | 90 µM
CN1CCN(CCSc2nc(-c3ccc4ccccc4c3)c3ccccc3n2)CC1 |  | 100 µM
Cc1ccc2nc(Cl)c(/C=C/C(=O)c3ccc4ccccc4c3)cc2c1 | MTS | >100 µM
CCOC(=O)[C@H](C)NP(=O)(OCC(F)(F)C(F)(F)Cn1c(=O)cc[nH]c1=O)Oc1ccccc1 |  | >100 µM
CN(C)CCSc1cccc(-c2cc(-c3cccs3)nc(SCCN(C)C)n2)c1 |  | 10 µM
O=c1ccn(CC(F)(F)C(F)(F)C(F)(F)CO)c(=O)[nH]1 |  | >100 µM
N#CC1=C[C@@H](n2cnc3c(=O)[nH]c(N)nc32)O[C@H]1CO |  | >100 µM
CC(=O)Nc1ccc(S(=O)(=O)NCCc2ccc3c(n2)NCCC3)cc1Cl |  | 50 µM
Cc1cc(C)cc(Cc2c(I)c(=O)[nH]c(=O)n2COCc2ccccc2)c1 | XTT | 137.8 µM
CN(CCc1ccc2c(n1)NCCC2)C(=O)Nc1ccc(C(F)(F)F)cc1 |  | 50 µM
COc1cc(/C=N/NC(=O)Cn2nc(-c3ccccc3)c3c2-c2ccccc2S(=O)(=O)N3C)cc(OC)c1OC |  | >100 µM
O=c1[nH]cnc2c1ncn2[C@@H]1O[C@@H](CO)[C@H](O)C1(F)F |  | >100 µM
CN(C)CCSc1cccc(-c2ccnc(SCCN(C)C)n2)c1 |  | 100 µM
Cc1cn(CC(F)(F)C(F)(F)CO)c(=O)[nH]c1=O |  | >100 µM
COc1ccc2nc(Cl)c(/C=C/C(=O)c3cc(Cl)sc3Cl)cc2c1 | MTS | 2.7 µM
Nc1nc2c(ncn2CC(F)(F)C(F)(F)CO)c(=O)[nH]1 |  | >100 µM
CC(C)(C)C(=O)OCOP(=O)(CC[C@H]1O[C@@H](n2cnc3c(N)ncnc32)[C@](C)(F)[C@@H]1O)OCOC(=O)C(C)(C)C |  | >100 µM
CC(=O)N[C@H]1[C@@H](OP(=O)(O)OP(=O)(O)OC[C@H]2O[C@@H](n3ccc(=O)[nH]c3=O)C[C@@H]2N=[N+]=[N-])O[C@H](CO)[C@@H](O)[C@@H]1O |  | 100 µM
COc1ccc2nc(Cl)c(/C=C/C(=O)c3ccc4ccccc4c3)cc2c1 | MTS | >100 µM
O=C(NCCc1ccc2c(n1)NCCC2)Nc1c(Cl)cccc1Cl |  | 50 µM
c1csc(-c2nnc3c4ccccc4c(N4CCc5ccccc5C4)nn23)c1 |  | >100 µM
O=C(CN1c2c(-c3ccccc3)n[nH]c2-c2ccccc2S1(=O)=O)N/N=C/c1ccccc1F |  | 20.7 µM
C=Cn1cc(C(=O)O)c(=O)c2ccc(N3CCN(c4ccccn4)CC3)cc21 |  | 9.11 µM
CN(CCCN)CCCNc1nc(-c2cccs2)cc(-c2cccs2)n1 |  | 100 µM
CN(C)CCSc1ccc(-c2ccc(-c3ccc(SCCN(C)C)cc3)nn2)cc1 |  | 10 µM
O=C(CN1c2c(-c3ccccc3)n[nH]c2-c2ccccc2S1(=O)=O)N/N=C/c1ccc(Br)cc1 |  | 13 µM
CN1CCN(CCSc2nccc(-c3ccc(-c4cccs4)s3)n2)CC1 |  | 100 µM
Cc1nnc2c3ccccc3c(N3CCc4c(F)cccc4C3)nn12 |  | 54.2 µM
O=C(NCCc1ccc2c(n1)NCCC2)NCc1ccc(F)c(Cl)c1 |  | 50 µM
CN1CCN(c2nc(-c3cccs3)cc(-c3cc4ccccc4s3)n2)CC1 |  | 100 µM
N#CC1=C[C@@H](n2ccc(=O)[nH]c2=O)O[C@H]1CO |  | >100 µM
Nc1ccn([C@H]2C=C(F)[C@@H](CO)O2)c(=O)n1 |  | >100 µM
C=Cn1cc(C(=O)O)c(=O)c2ccc(N3CCN(c4cccc(C(F)(F)F)c4)CC3)cc21 |  | 5.7 µM
CN1CCN(CCSCc2ccc(-c3cccc(-c4ccc(CSCCN5CCN(C)CC5)cc4)n3)cc2)CC1 |  | 10 µM
COc1cccc(-c2nnc3c4ccccc4c(N4CCc5ccccc5C4)nn23)c1 |  | >100 µM
S=C(NCCc1ccc2c(n1)NCCC2)NCc1ccc(Cl)c(Cl)c1 |  | 2.8 µM
CN1c2c(-c3ccccc3)nn(CC(=O)N/N=C/c3c(Cl)cccc3Cl)c2-c2ccccc2S1(=O)=O |  | >100 µM
O=c1ccn([C@@H]2O[C@@H](CO)[C@H](O)C2(F)F)c(=O)[nH]1 |  | >100 µM
Cc1cn([C@@H]2C=C(C#N)[C@H](CO)O2)c(=O)[nH]c1=O |  | >100 µM
Nc1ccn(CC(F)(F)C(F)(F)C(F)(F)CO)c(=O)n1 |  | >100 µM

6 of the rows above, restated:

SMILES,method,value
c1csc(-c2cc(-c3cccs3)nc(N3CCOCC3)n2)c1,,>100 µM
CC(C)(C)C(=O)OCOP(=O)(CC[C@H]1O[C@@H](n2cnc3c(N)ncnc32)[C@](C)(F)[C@@H]1O)OCOC(=O)C(C)(C)C,,>100 µM
Cc1ccc2nc(Cl)c(/C=C/C(=O)c3ccc4ccccc4c3)cc2c1,MTS,>100 µM
CCCCOc1nc(N)c2c(n1)N(Cc1cccc(CN3CCCC3)c1)CC(=O)N2,luminescence,>10 µM
Cc1cc(C)cc(Cc2c(I)c(=O)[nH]c(=O)n2COCc2ccccc2)c1,XTT,137.8 µM
Nc1nccc2c1ncn2[C@@H]1C[C@H](CO)[C@@H](O)[C@H]1O,,9.98 µM